{"source": "paper PMC5923399", "about": "(Marine Drugs, 2018)", "origin": "cited, not measured here", "key": {"α3β2 nAChR": {"test_system": "α3β2 nAChR", "conditions": "read-out: IC50 α3β2, rat nAChR, cited from earlier work"}, "α7 nAChR": {"target": "α7 nAChR (Rattus norvegicus, UniProt Q05941)", "conditions": "cited from earlier work"}}, "note": "pIC50: −log10 of the molar value. Read-outs that look alike come from different tables or passages of the source. The structures given here were assigned with low confidence; some may be wrong."}
{"smiles": "CC[C@H](C)[C@@H]1NC(=O)[C@H](Cc2cnc[nH]2)NC(=O)[C@@H]2CCCN2C(=O)[C@H](CC(N)=O)NC(=O)[C@H](CC(N)=O)NC(=O)[C@H](C(C)C)NC(=O)[C@H](CC(N)=O)NC(=O)[C@@H]2CSSC[C@H](NC(=O)CN)C(=O)N[C@@H](CSSC[C@@H](C(=O)NCC(N)=O)NC1=O)C(=O)N[C@@H](CO)C(=O)N[C@@H](Cc1cnc[nH]1)C(=O)N1CCC[C@H]1C(=O)N[C@@H](C)C(=O)N2", "values": [{"measurement": "pIC50", "setting": "α3β2 nAChR; ref [32]", "value": 7.96}, {"measurement": "pIC50", "setting": "α7 nAChR; read-out: IC50 α7, ref [32]", "value": 7.57}]}
{"smiles": "CC(C)[C@@H]1NC(=O)[C@H](Cc2cnc[nH]2)NC(=O)[C@@H]2CCCN2C(=O)[C@H](CC(N)=O)NC(=O)[C@H](CC(N)=O)NC(=O)[C@H](C(C)C)NC(=O)[C@H](CCCNC(=N)N)NC(=O)[C@@H]2CSSC[C@H](NC(=O)[C@H](CCC(=O)O)NC(=O)[C@@H](N)CC(=O)O)C(=O)N[C@@H](CSSC[C@@H](C(=O)N[C@@H](CCCNC(=N)N)C(=O)N[C@@H](CCCNC(=N)N)C(=O)N[C@@H](CCCNC(=N)N)C(=O)O)NC1=O)C(=O)N[C@@H](CO)C(=O)N[C@@H](CC(N)=O)C(=O)N1CCC[C@H]1C(=O)N[C@@H](C)C(=O)N2", "values": [{"measurement": "pIC50", "setting": "α3β2 nAChR; ref [26]", "value": 7.22}, {"measurement": "pIC50", "setting": "α7 nAChR; read-out: IC50 α7, ref [26]", "value": 8.74}]}
{"smiles": "CC[C@H](C)[C@H](N)C(=O)N[C@@H](CCCNC(=N)N)C(=O)N[C@@H](CC(=O)O)C(=O)N[C@@H](CC(C(=O)O)C(=O)O)C(=O)N[C@H]1CSSC[C@@H]2NC(=O)[C@H](C)NC(=O)[C@@H]3CCCN3C(=O)[C@H](CC(N)=O)NC(=O)[C@H](CO)NC(=O)[C@H](CSSC[C@@H](C(=O)O)NC(=O)[C@H](C(C)C)NC(=O)[C@H](Cc3cnc[nH]3)NC(=O)[C@@H]3C[C@@H](O)CN3C(=O)[C@H](CC(N)=O)NC(=O)[C@H](CC(N)=O)NC(=O)[C@H](C(C)C)NC(=O)[C@H](CCCNC(=N)N)NC2=O)NC1=O", "values": [{"measurement": "pIC50", "setting": "α3β2 nAChR; ref [28]", "value": 8.51}, {"measurement": "pIC50", "setting": "α7 nAChR; read-out: IC50 α7, ref [28]", "value": 8.35}]}
